Results from ChEMBL document CHEMBL1139988, “Discovery of structurally diverse HIV-1 integrase inhibitors based on a chalcone pharmacophore” (Bioorg Med Chem, 2007).

Protein sequences, listed by entry. Tags and fused reporters are not part of them. Residues count along the entry.
UniProt Q7ZJM1, 1-288: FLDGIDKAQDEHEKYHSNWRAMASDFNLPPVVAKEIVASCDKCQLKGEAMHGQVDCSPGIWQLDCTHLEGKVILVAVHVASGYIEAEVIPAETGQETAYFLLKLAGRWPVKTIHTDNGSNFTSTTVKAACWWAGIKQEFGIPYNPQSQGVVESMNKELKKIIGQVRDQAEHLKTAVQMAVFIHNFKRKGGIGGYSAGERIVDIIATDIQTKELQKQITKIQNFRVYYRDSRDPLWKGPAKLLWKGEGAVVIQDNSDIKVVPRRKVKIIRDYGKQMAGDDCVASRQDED

Assays:
[1] = target: T1, Human immunodeficiency virus type 1 integrase (Human immunodeficiency virus 1, UniProt Q7ZJM1); assay: Inhibition of HIV1 integrase strand transfer activity
[2] = target: T1, Human immunodeficiency virus type 1 integrase; assay: Inhibition of HIV1 integrase 3'-end processing activity

SMILES: CC(C)CN1C(N/N=C/c2cc(Br)ccc2O)=NC2C1C(=O)NC(=O)N2C (configuration not stated)
- IC50 [1]: 53 µM
- IC50 [2]: 65 µM
